Experimental findings from article PMC5719402, “Protein-Structure Assisted Optimization of 4,5-Dihydroxypyrimidine-6-Carboxamide Inhibitors of Influenza Virus Endonuclease” (Scientific Reports, 2017) are described below.

Molecules are shown by their SMILES.

The target of test [1] is wild type PAN protein (PA endonuclease domain) (Influenza A virus, UniProt C3W5S0).
Test [2] concerns the target wild type PAN ΔLoop protein (Influenza A virus, UniProt C3W5S0, DEL51-57/DEL61-72/E59G). The test is described as follows: FRET based PAN nuclease activity assay. It counts as biochemical, influenza A/California/04/2009 H1N1. Particulars: read-out: FRET nuclease assay IC50.

On to `O=C(O)c1nc([C@@H]2CCCN2C(=O)COc2ccccc2Cl)[nH]c(=O)c1O`, for which the Ki in test [1] is below 10 nM. Besides, the 50% inhibitory concentration (IC50) in test [2] was 45 nM.

The Ki is the dissociation constant of the complex between target and ligand, obtained from inhibition or displacement. Higher therefore signals lower affinity. One may read the IC50 as the concentration needed to halve the response being measured.
